Data as given in PubChem BioAssay AID1224833 (University of Georgia, 2016)
The deposit covers about 12,000 reagents; below is a random part of them. About 5,600 of them (46%) count as active. 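Active calls cover z-scores past 1 in both directions, so they include lowered as well as raised rotavirus replication.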 Entries without a mark were called inactive.

- Purpose: 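Human genes whose knock-down alters rotavirus replication in monkey cells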 (primary screen)
- Cell system: monkey MA104 kidney cells
- Reagent: siRNA pool against human genes, 50 nM
- Timing: 48 h knock-down before infection; read 24 h after infection
- Treatment: infection with rotavirus strain RV3 two days after transfection; infectious dose for this stage not given
- Read-out: 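z-score of rotavirus antigen signal per well, from a fluorescent immunoassay, relative to non-targeting control wells on the same plate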
- Direction: z-score vs non-targeting control: higher = more rotavirus replication than with non-targeting control
- Rule for the call: In these data the active calls have z-score vs non-targeting control at about -1 or lower, or at about 1 or higher
- Calls: active = z-score beyond 1 either way; inactive = z-score within 1 of zero

Gene	z-score vs non-targeting control
NDRG4	-0.453
AASS	0.82
ARPC5L	-0.601
C1orf159	2.06 (active)
PXDN	1.06 (active)
GET1	-1.26 (active)
FARSA	-0.86
ZSCAN26	0.965
TTC12	-0.266
TOR1B	-0.244
SH3GLB1	-0.972
STAT5B	-0.814
SLC5A4	-0.608
DCAF11	-1.32 (active)
NPLOC4	-1.52 (active)
FOXO1	-1.34 (active)
MTIF3	1.67 (active)
THRB	-0.687
DRICH1	-2.9 (active)
GLRX5	-2.18 (active)
DCT	-0.889
SHC3	0.139
ZNF771	-2.16 (active)
RPS3A	-0.928
DKK1	1.4 (active)
SLC14A2	2.22 (active)
RXFP1	-1.17 (active)
NENF	-0.276
QPCTL	-0.631
CFAP61	0.285
POLN	-1.2 (active)

Next part (10 carried over from the part before).
Gene	z-score vs non-targeting control
SHC3	0.139
ZNF771	-2.16 (active)
RPS3A	-0.928
DKK1	1.4 (active)
SLC14A2	2.22 (active)
RXFP1	-1.17 (active)
NENF	-0.276
QPCTL	-0.631
CFAP61	0.285
POLN	-1.2 (active)
KIF26B	1.21 (active)
CCDC6	-1.07 (active)
SERPINB6	1.31 (active)
KLHL4	-0.321
FKBP9	-1.51 (active)
SLC25A53	-1.96 (active)
BPIFB2	-0.954
LILRB2	1.33 (active)
CMSS1	0.557
OGFOD2	-1.21 (active)
SPAG11A	-1.64 (active)
LACC1	-0.726
DAPL1	-0.808
E2F3	-0.583
ING2	-1.59 (active)
TMEM132A	2.57 (active)
CMC2	-0.663
OR2T33	-2.16 (active)
SUV39H2	-1.8 (active)
CCDC126	1.5 (active)
ZNF69	0.46
OTUB2	1.29 (active)
PRX	-0.313
TFCP2	2.54 (active)
ODF2L	0.631
LMO1	-1.12 (active)
MED19	-0.216
GSTA2	1.75 (active)
ANAPC7	0.94
MPZL1	0.294
PAXBP1	-0.912
MECR	-1.45 (active)
BTBD7	0.0873
CTSA	-2.52 (active)
PRUNE1	-0.523
OR6C76	-0.807
COQ7	-0.525
CNTNAP2	-2.13 (active)
ZFP36	-0.934
ZC3H12A	1.31 (active)
ANKHD1-EIF4EBP3	-1.47 (active)
FUCA2	-0.674
FAR2	2.46 (active)
AKNA	-2.15 (active)
